Reference: patent publication US20010041790A1

Target: 35S-labeled hamster PrPsen, glycophosphoinositol-negative form (35S-HaPrPsen) (Syrian golden hamster), P04273
Experiment: cell-based or functional assay

For MKHMAGAKAAGAVVGGLGGYMLGSAMSRPMMHF (modifications not checked) [HaP109-141 (K116)], which IC50 of the conversion reaction is on record?
Its IC50 of the conversion reaction is 150 µM.
